# Tested on: not listed separately; call rule not given here
# Assay: Antiviral activity against Influenza A virus A/WSN/1933(H1N1) harboring neuraminidase H275Y mutant infected in MDCK cells assessed as virus-mediated cytopathic effect after 48 hrs by CellTiter96 assay
row,SMILES,EC50
1,CCCCS(=O)(=O)NC(=O)C1=C[C@@H](OC(CC)CC)[C@H](NC(C)=O)[C@@H](NC(=N)N)C1,Not Active
2,CCC(CC)O[C@@H]1C=C(C(=O)NOCc2ccccc2)C[C@H](N)[C@H]1NC(C)=O,Not Active
3,CCC(CC)O[C@@H]1C=C(C(=O)NS(=O)(=O)C(F)(F)F)C[C@H](NC(=N)N)[C@H]1NC(C)=O,Not Active
4,CCC(CC)O[C@@H]1C=C(C(=O)O)C[C@H](N)[C@H]1NC(C)=O [OSELTAMIVIR CARBOXYLATE],11000 nM
5,CCC(CC)O[C@@H]1C=C(C(=O)NS(=O)(=O)c2ccccc2)C[C@H](NC(=N)N)[C@H]1NC(C)=O,Not Active
6,CCC(CC)O[C@@H]1C=C(C(=O)NOCc2ccccc2)C[C@H](NC(=N)N)[C@H]1NC(C)=O,16100 nM
7,CCCCS(=O)(=O)NC(=O)C1=C[C@@H](OC(CC)CC)[C@H](NC(C)=O)[C@@H](N)C1,Not Active
8,CCC(CC)O[C@@H]1C=C(C(=O)NO)C[C@H](N)[C@H]1NC(C)=O,Not Active
9,CCC(CC)O[C@@H]1C=C(C(=O)NOC)C[C@H](N)[C@H]1NC(C)=O,Not Active
10,CCC(CC)O[C@@H]1C=C(C(=O)NOCCCc2cc3ccccc3[nH]2)C[C@H](NC(=N)N)[C@H]1NC(C)=O,2270 nM
11,CCC(CC)O[C@@H]1C=C(C(=O)NS(=O)(=O)C(F)(F)F)C[C@H](N)[C@H]1NC(C)=O,Not Active
12,CCC(CC)O[C@@H]1C=C(C(=O)NOC)C[C@H](NC(=N)N)[C@H]1NC(C)=O,2770 nM
13,CCC(CC)O[C@@H]1C=C(C(=O)NOCCCc2cc3ccccc3[nH]2)C[C@H](N)[C@H]1NC(C)=O,Not Active
14,CCC(CC)O[C@@H]1C=C(C(=O)NS(C)(=O)=O)C[C@H](NC(=N)N)[C@H]1NC(C)=O,6900 nM
15,CCC(CC)O[C@@H]1C=C(C(=O)NS(C)(=O)=O)C[C@H](N)[C@H]1NC(C)=O,Not Active
16,CCC(CC)O[C@@H]1C=C(C(=O)NS(=O)(=O)c2ccccc2)C[C@H](N)[C@H]1NC(C)=O,Not Active

# Target: Neuraminidase (Influenza A virus (strain A/Wilson-Smith/1933 H1N1) (Influenza A virus(strain A/WS/1933 H1N1)), UniProt P03470, H275Y)
# Assay: Inhibition of Influenza A virus A/WSN/1933(H1N1) neuraminidase H275Y mutant using 2-(4-methylumbelliferyl)-alpha-D-N-acetylneuraminic acid after 15 mins by fluorescent assay
row,SMILES,IC50
1,CCCCS(=O)(=O)NC(=O)C1=C[C@@H](OC(CC)CC)[C@H](NC(C)=O)[C@@H](NC(=N)N)C1,1110 nM
2,CCC(CC)O[C@@H]1C=C(C(=O)NOCc2ccccc2)C[C@H](N)[C@H]1NC(C)=O,1010 nM
3,CCC(CC)O[C@@H]1C=C(C(=O)NS(=O)(=O)C(F)(F)F)C[C@H](NC(=N)N)[C@H]1NC(C)=O,832 nM
4,CCC(CC)O[C@@H]1C=C(C(=O)NS(=O)(=O)c2ccccc2)C[C@H](NC(=N)N)[C@H]1NC(C)=O,13400 nM
5,CCC(CC)O[C@@H]1C=C(C(=O)NOCc2ccccc2)C[C@H](NC(=N)N)[C@H]1NC(C)=O,6950 nM
6,CCCCS(=O)(=O)NC(=O)C1=C[C@@H](OC(CC)CC)[C@H](NC(C)=O)[C@@H](N)C1,Not Active
7,CCC(CC)O[C@@H]1C=C(C(=O)NO)C[C@H](N)[C@H]1NC(C)=O,Not Active
8,CCC(CC)O[C@@H]1C=C(C(=O)NOC)C[C@H](N)[C@H]1NC(C)=O,6650 nM
9,CCC(CC)O[C@@H]1C=C(C(=O)NOCCCc2cc3ccccc3[nH]2)C[C@H](NC(=N)N)[C@H]1NC(C)=O,1230 nM
10,CCC(CC)O[C@@H]1C=C(C(=O)NS(=O)(=O)C(F)(F)F)C[C@H](N)[C@H]1NC(C)=O,Not Active
11,CCC(CC)O[C@@H]1C=C(C(=O)NOC)C[C@H](NC(=N)N)[C@H]1NC(C)=O,781 nM
12,CCC(CC)O[C@@H]1C=C(C(=O)NOCCCc2cc3ccccc3[nH]2)C[C@H](N)[C@H]1NC(C)=O,1110 nM
13,CCC(CC)O[C@@H]1C=C(C(=O)NS(C)(=O)=O)C[C@H](NC(=N)N)[C@H]1NC(C)=O,19.5 nM
14,CCC(CC)O[C@@H]1C=C(C(=O)NS(C)(=O)=O)C[C@H](N)[C@H]1NC(C)=O,19100 nM
15,CCC(CC)O[C@@H]1C=C(C(=O)NS(=O)(=O)c2ccccc2)C[C@H](N)[C@H]1NC(C)=O,Not Active

# Source: ChEMBL document CHEMBL3352719 (Bioorg Med Chem, 2014)
